Compound potency records, mixed from different reports. Data source: NIAID ChemDB in PubChem.

Shared fields: whole-cell or culture tests; agent: HIV-1; measure: EC50

Blank or dashed fields: not listed here. Two numbers with a dash give a range or band. ECn is the concentration giving n% inhibition of infection, replication or growth. Neighbouring rows are from separate reports.

| structure | strain or isolate | mutations | method | result |
|---|---|---|---|---|
| O=C(NCCCCN1CCCC2=C[C@H]3C[C@H](CN4CCCC[C@H]34)[C@@H]21)c1ccc(CNS(=O)(=O)C(F)(F)F)cc1 | - | - | - | >20 µM |
| C=C(C)[C@@H]1CC[C@]2(C(=O)O)CC[C@]3(C)[C@H](CC[C@@H]4[C@@]5(C)CC[C@H](O)C(C)(C)[C@@H]5CC[C@]43C)[C@@H]12 | - | - | - | >20 µM |
| C=C(C)[C@@]12OC3(/C=C/C=C/C=C/CCC)O[C@@H]1[C@@H]1[C@@H]4O[C@]4(CO)[C@@H](O)[C@]4(O)C(=O)C(C)=C[C@H]4[C@@]1(O3)[C@H](C)[C@H]2OC(C)=O | - | - | cytopathic effect | 0.00563 µM |
| Cc1ccnc2c1NC(=O)c1cccnc1N2C1CC1 | PERE98287RT Recombinant | - | - | 0.01 µM |
| Nc1ccn([C@H]2CC[C@@H](CO)O2)c(=O)n1 | - | - | cytopathic effect | <0.1 µM |
| CC(C)(C)OC(=O)N[C@@H](Cc1ccccc1)[C@H](O)CNC[C@@H](O)[C@H](Cc1ccc(OCC(=O)N2CCOCC2)cc1)NC(=O)OC(C)(C)C | BMS-186318-resistant (PR A71T V82A) | PR-A71T V82A | - | 3.11 µM |
| NC(=O)c1cnnn1C1OC(CO)C(O)C1F | - | - | - | >100 µM |
| O=C(O)C(=O)CC(=O)c1cc(OCc2ccccc2)cc(OCc2ccccc2)c1 | - | - | - | 2 µM |
| CC(C)c1c(CO)cn(Cc2ccncc2)c1Sc1cc(Cl)cc(Cl)c1 | - | RT-K103N | cytopathic effect / MTT | <2.3 µM |
| Cc1cn([C@@H]2O[C@H](CO[Si](C)(C)C(C)(C)C)C3(OS(=O)(=O)C=C3N)[C@H]2O[Si](C)(C)C(C)(C)C)c(=O)n(CC2CO2)c1=O | - | - | - | 0.03–0.76 µM |
| Cc1c(Cc2cccc3ccccc23)nc(SCc2cn(Cc3ccccc3C#N)nn2)[nH]c1=O | IIIB | - | MTT | >123 µM |
| Nc1c(S(=O)(=O)O)cc2c3c(cc(S(=O)(=O)O)cc13)C(=O)N(NC(=O)N/N=C/c1ccccc1)C2=O | LAV | - | RT activity | ~1760 µM |
| COCCn1c(=O)c(C)cn([C@@H]2O[C@H](CO[Si](C)(C)C(C)(C)C)C3(OS(=O)(=O)C=C3N)[C@H]2O[Si](C)(C)C(C)(C)C)c1=O | - | - | - | 0.03–0.76 µM |
| CC(C)(C)NC(=O)[C@@H]1CN(Cc2cccnc2)CCN1C[C@@H](O)C[C@@H](Cc1ccccc1)C(=O)N[C@H]1c2ccccc2C[C@H]1O | pNL4-3 luciferase reporter | - | - | 0.0141 µM |
| COC(=O)c1cc(Nc2cc(C)[n+](C)c(N)n2)cc(C(=O)OC)c1 | ADA | - | - | >1 µM |
| O=C1CS(=O)(=O)OC12C1CC3CC(C1)CC2C3 | - | - | - | >200 µg/mL |
| NC(=O)[C@H](Nc1ccccc1[N+](=O)[O-])c1c(Cl)cccc1Cl | AZT-resistant (RT I135T Q207E T215F K219Q) | RT-I135T Q207E T215F K219Q | p24 | 0.073 µg/mL |
| O=C(O)C(=Cc1ccc(O)c(O)c1)C(=Cc1ccc(O)c(O)c1)C(=O)O | - | - | - | 4.4 µM |
| NC(=O)c1cn(C2OC(CO)C(O)C2F)nn1 | - | - | - | >1 µM |
| NC(=O)c1ccc(Cn2cc(CSc3nc(Cc4cccc5ccccc45)cc(=O)[nH]3)nn2)cc1 | IIIB | - | MTT | >105 µM |
| Cc1cn([C@H]2C[C@H](N=[N+]=[N-])[C@@H](CO)O2)c(=O)n(N)c1=O | NL4-3 | - | - | 0.11 µM |
| Cc1[nH]c(=O)c(F)cc1Cn1cnc(C(F)(F)C(F)F)c(Oc2cc(C(F)F)cc(C#N)c2C)c1=O | - | - | luminescence | 34.4 µM |
| O=C1CC(c2ccccc2)Oc2ccccc21 | - | - | - | >20 µM |
| Cc1cn(C2CC(N=[N+]=[N-])C(CO)O2)c(=O)n(/C=C/S(=O)(=O)c2ccccc2)c1=O | NL4-3 | - | - | 0.007 µM |
| NC(=O)c1cn([C@@H]2O[C@@H](CO)[C@H](O)[C@H]2F)nn1 | - | - | - | >100 µM |
| CC[C@H](C)[C@H](NC(=O)[C@H](CCC(N)=O)NC(=O)[C@@H]1CCCN1N)C(=O)N[C@H](C(=O)N[C@@H](CC(C)C)C(=O)N[C@@H](Cc1c[nH]c2ccccc12)C(=O)O)[C@@H](C)O | - | - | MTT | >125 µg/mL |
| CC(C)(C)NC(=O)[C@@H]1CN(C(C)(C)c2cc3cnccc3o2)CCN1C[C@@H](O)C[C@@H](Cc1ccccc1)C(=O)N[C@H]1c2ccccc2OC[C@H]1O | Q-60C(PR-L10I S37N R41K M46I I54V I62V L63P A71V V77I V82A L90M I93L) | PR-L10I S37N R41K M46I I54V I62V L63P A71V V77I V82A L90M I93L | - | <0.25 µM |
| CC(C)(C)NC(=O)[C@@H]1C[C@@H]2CCCC[C@@H]2CN1C[C@@H](O)[C@H](Cc1ccccc1)NC(=O)[C@@H](NC(=O)c1ccc2ccccc2n1)C(C)(C)S(C)(=O)=O | - | - | - | 0.002 µM |
| CCN(c1ncccc1NC(C)(C)C)C1CCN(C(=O)c2cc3cc(NS(C)(=O)=O)ccc3[nH]2)CC1 | IIIB | - | p24 | 0.47 ± 0.04 µM |
| Cc1ccnc2c1NC(=O)c1cccnc1N2C1CC1 | RES056 | - | MTT | ≥7.59 µM |
| Cc1cn([C@@H]2O[C@H](CO[Si](C)(C)C(C)(C)C)C3(OS(=O)(=O)C=C3N)[C@H]2O[Si](C)(C)C(C)(C)C)c(=O)n(CCC2C=Nc3ccccc32)c1=O | - | - | - | 0.03–0.76 µM |
| CC(=O)c1ccc(Cn2cc(CSc3nc(Cc4c(Cl)cccc4Cl)c(C)c(=O)[nH]3)nn2)cc1 | RES056 | - | MTT | >32.58 µM |
| Cc1cn([C@H]2C[C@H](N=[N+]=[N-])[C@@H](CO)O2)c(=O)[nH]c1=O | - | - | cytopathic effect | 0.01592 µM |
| NC(=O)c1ccc(Cn2cc(CSc3nc(Cc4cccc5ccccc45)c(I)c(=O)[nH]3)nn2)cc1 | IIIB | - | MTT | >88.01 µM |
| c1ccc(CNCc2ccc(CN3CCCNCCNCCCNCC3)cc2)nc1 | RF | - | - | 0.006 µg/mL |
| Nc1ccn([C@H]2CC[C@@H](CO)O2)c(=O)n1 | IIIB | - | cytopathic effect / MTT | 1.7 µM |
| CC(C)c1c(COC(N)=O)cn(Cc2ccncc2)c1Sc1cc(Cl)cc(Cl)c1 | - | RT-K103N | cytopathic effect / MTT | <30 µM |
| Cc1cn([C@H]2C[C@H](N=[N+]=[N-])[C@@H](CO)O2)c(=O)[nH]c1=O | - | - | - | 0.0061 µg/mL |
| NNC(=O)C(=O)NNc1ccccc1 | NL4-3 | - | luciferase / luminescence | 7.11 µM |
| O=C(NCc1ccc(F)cc1)c1nc(N2CCCCS2(=O)=O)c2cccnc2c1O | IIIB | - | β-galactosidase | 0.0063 µM |
| CCCc1cc(=O)oc2c3c(c4c(c12)OC(C)(C)C=C4)O[C@H](C)[C@@H](C)[C@@H]3O | - | - | cytopathic effect / XTT | 0.2 µM |
| NC(=O)c1nnn(C2OC(CO)C(O)C2F)c1N | - | - | - | >100 µM |
| Cc1cn(C2CC(N=[N+]=[N-])C(CO)O2)c(=O)n([N+](=O)[O-])c1=O | NL4-3 | - | - | 0.032 µM |
| NNC(=O)NN1C(=O)c2cc(S(=O)(=O)[O-])cc3c(N)c(S(=O)(=O)[O-])cc(c23)C1=O | LAV | - | RT activity | >1760 µM |
| Cc1cccc(C)c1OCC(=O)N[C@@H](Cc1ccccc1)[C@H](O)CN1CC[C@@H](Sc2ccncc2)C[C@H]1C(=O)NC(C)(C)C | - | - | - | 0.002 µM |
| O=c1[nH]cnc2c1ncn2[C@H]1CC[C@@H](CO)O1 | IIIB | - | cytopathic effect / MTT | 4.2 µM |
| Nc1c(S(=O)(=O)O)cc2c3c(cc(S(=O)(=O)O)cc13)C(=O)N(NC(=O)N/N=C/c1ccc(-c3ccc(/C=N/NC(=O)NN4C(=O)c5cc(S(=O)(=O)O)cc6c(N)c(S(=O)(=O)O)cc(c56)C4=O)cc3)cc1)C2=O | LAV | - | RT activity | <80 µM |
| CCOC(=O)/C([O-])=C/[P+](c1ccccc1)(c1ccccc1)c1ccccc1 | - | - | - | >100 µM |
| Cc1cn([C@H]2C[C@H](N=[N+]=[N-])[C@@H](CO)O2)c(=O)[nH]c1=O | H257-6 (RT M41L T215Y) | RT-M41L T215Y | - | 2.8 µM |
| Cc1cn([C@@H]2O[C@H](CO[Si](C)(C)C(C)(C)C)C3(OS(=O)(=O)C=C3N)[C@H]2O[Si](C)(C)C(C)(C)C)c(=O)n(CCCNC(=O)c2ccc(N=[N+]=[N-])cc2)c1=O | - | - | - | 0.03–0.76 µM |
| O=c1cc(Cc2c(Cl)cccc2Cl)nc(SCc2cn(Cc3ccccc3)nn2)[nH]1 | RES056 | - | MTT | >273 µM |
| CCOC(=O)/C=C/n1c(=O)c(C)cn([C@@H]2O[C@H](CO[Si](C)(C)C(C)(C)C)C3(OS(=O)(=O)C=C3N)[C@H]2O[Si](C)(C)C(C)(C)C)c1=O | - | - | - | 0.03–0.76 µM |
| C[C@@H](Cn1cnc2c(=O)[nH]c(N)nc21)OCP(=O)(O)O | - | - | - | 17 µM |
| Cc1ccc(S(=O)(=O)/C=C/n2c(=O)c(C)cn(C3CC(N=[N+]=[N-])C(CO)O3)c2=O)cc1 | NL4-3 | - | - | 0.011 µM |
| Cc1c(Cc2c(Cl)cccc2Cl)nc(SCc2cn(Cc3ccc(S(N)(=O)=O)cc3)nn2)[nH]c1=O | RES056 | - | MTT | >95.49 µM |
| Fc1cccc(F)c1C1SCc2nc3ccccc3n21 | IIIB | RT-Y181C | cytopathic effect / MTT | 13.8 µM |
| N#Cc1ccc(Cn2cc(CSc3nc(Cc4c(Cl)cccc4Cl)cc(=O)[nH]3)nn2)cc1 | IIIB | - | MTT | >41.12 µM |
| CC(C)(C)NC(=O)[C@@H]1C[C@@H]2CCCC[C@@H]2CN1C[C@@H](O)[C@H](Cc1ccccc1)NC(=O)[C@@H](NC(=O)COc1cccnc1)C(C)(C)S(C)(=O)=O | - | PR-K20R M46I L63P V82T I84V | - | 0.012 µM |
| C=O.Cc1cn(C2CC(N(N)N)C(OP(N)(=O)OCC3OC(n4ccc(N)nc4=O)CS3)O2)c(=O)[nH]c1=O | - | - | - | 0.011 µM |
| CC(C)(C)NC(=O)[C@@H]1C[C@@H]2CCCC[C@@H]2CN1C[C@@H](O)[C@H](Cc1ccccc1)NC(=O)[C@@H](NC(=O)c1ccccc1)C(C)(C)S(C)(=O)=O | - | - | - | 0.03 µM |
| C#C[C@]1(CO)O[C@@H](n2cnc3c(N)nc(F)nc32)C[C@@H]1O | - | RT-M184V | - | 0.0031 µM |
| C=CCOC(=O)NC1CCCN(CC(=O)NN[C@@H](CC(N)=O)C(=O)N[C@@H](Cc2ccccc2)C(=O)O)C1=O | - | - | MTT | >125 µg/mL |
| O=C(CCC(=O)Nc1ccn([C@H]2CC[C@@H](CO)O2)c(=O)n1)Nc1ccn([C@H]2CC[C@@H](CO)O2)c(=O)n1 | - | - | cytopathic effect | <1 µM |
| Cc1cn([C@@H]2O[C@H](CO[Si](C)(C)C(C)(C)C)C3(OS(=O)(=O)C=C3N)[C@H]2O[Si](C)(C)C(C)(C)C)c(=O)n(/C=C/CO)c1=O | - | - | - | 0.03–0.76 µM |
| CCOCn1c(Cc2ccccc2)c(C(C)C)c(=O)[nH]c1=O | HXB23(RT-K103N | RT-K103N | cytopathic effect / MTT | 2.1 µM |

Repeating the first 4 entries:

{"structure": "O=C(NCCCCN1CCCC2=C[C@H]3C[C@H](CN4CCCC[C@H]34)[C@@H]21)c1ccc(CNS(=O)(=O)C(F)(F)F)cc1", "result": ">20 µM"}
{"structure": "C=C(C)[C@@H]1CC[C@]2(C(=O)O)CC[C@]3(C)[C@H](CC[C@@H]4[C@@]5(C)CC[C@H](O)C(C)(C)[C@@H]5CC[C@]43C)[C@@H]12", "result": ">20 µM"}
{"structure": "C=C(C)[C@@]12OC3(/C=C/C=C/C=C/CCC)O[C@@H]1[C@@H]1[C@@H]4O[C@]4(CO)[C@@H](O)[C@]4(O)C(=O)C(C)=C[C@H]4[C@@]1(O3)[C@H](C)[C@H]2OC(C)=O", "method": "cytopathic effect", "result": "0.00563 µM"}
{"structure": "Cc1ccnc2c1NC(=O)c1cccnc1N2C1CC1", "strain or isolate": "PERE98287RT Recombinant", "result": "0.01 µM"}